Reference: patent US20110311550A1

Molecular target: E1E2 complex (H77) with E2 mutation L441A (HCV genotype 1a, isolate H77) (UniProt P27958)
Assay: ELISA, lectin-captured E1E2 lysate, Ab 1 ug/ml

Substance: MAb AR3A (antibody)
- Binding relative to wt (%): 9%
